# According to PMC7416112 (Structure(London, England:1993), 2020):
# Target: BG505 SOSIP.v4.1-2XStrep (N332) (HIV-1 (BG505))
# Assay: BLI
substance,measurement,value
2G12 Fab2,koff,0.000965 s⁻¹
same,kon,227000 M⁻¹ s⁻¹
